The structures appear in SMILES notation.

Data set [1] has as its system L1210. Nature of the data set: Antitumor activity against mouse L1210 cells allografted in mouse assessed as increase in survival rate at 62.5 mg/kg, ip administered on day 1 measured on day 30 relative to control. The note with it: route intraperitoneal.
In data set [2] the test system is Mus musculus. Nature of the data set: Toxicity in mouse allografted with mouse L1210 cells assessed as survival rate at 62.5 mg/kg, ip administered on day 1 measured on day 30 relative to control. The note with it: in vivo.
Data set [3] has as its system Mus musculus. The data set can be described thus: Toxicity in mouse allografted with mouse L1210 cells assessed as survival rate at >= 125 mg/kg, ip administered on day 1 measured on day 30 relative to control. Particulars: in vivo.
Data set [4] has as its system W256. Nature of the data set: Cytotoxicity against rat Walker 256 cells assessed as growth inhibition at 80 to 320 ug/mL in absence of microsomal activation relative to control.
Data set [5] relates to L1210. The data set can be described thus: Antitumor activity against mouse L1210 cells allografted in mouse assessed as increase in survival rate at 500 mg/kg, ip administered on day 1 measured on day 30 relative to control. The note with it: route intraperitoneal.
In data set [6] the test system is Mus musculus. Nature of the data set: Toxicity in mouse allografted with mouse L1210 cells assessed as survival rate at 500 mg/kg, ip administered on day 1 measured on day 30 relative to control. The note with it: in vivo.

In the case of `O=[P@@]1(N(CCCl)CCCl)OC[C@@H]2C[N@@]21`, the T/C (usually the result in the treated group divided by that in the control group, in per cent) in data set [1] stood at 120%. For the same molecule, the Activity entry in data set [2] is on record as “Non-toxic”. Moreover, the Survival in data set [3] came to 0%. For the same molecule, the growth inhibition (GI) in data set [4] was 100%.
Take `O=[P@]1(N(CCCl)CCCl)OC[C@@H]2C[N@@]21`: the T/C in data set [5] was 106%. The Survival in data set [6] is 100%.
For the molecule `[O-][P@@+]1(N(CCCl)CCCl)NC[C@@H](Br)CO1`, in data set [5], the T/C stood at 146%. Further, the Activity result in data set [6] is recorded as “Non-toxic”.

For the origin of these results see ChEMBL document CHEMBL3227956 (J Med Chem, 1979).
